Legend:
[1] = tested on: strains of human rhinovirus (HRV); assay: Antirhinoviral H1-HeLa cell culture assay (XTT cell protection, EC50), other HRV strains; assay type: cell-based, human rhinovirus in H1-HeLa cells
Protocol: (§1) Antirhinoviral H1-HeLa Cell Culture Assay:
In this cell protection assay, the ability of compounds to protect cells against HRV infection was measured by the XTT dye reduction method, which is described in Weislow et al., J. Natl. Cancer Inst. (1989), vol. 81, 577-586. H1-HeLa cells were infected with HRV-14 at a multiplicity of infection (m.o.i.) of 0.13 (virus particles/cell) or mock-infected with medium only. Infected or mock-infected cells were resuspended at 8×10^5 cells per mL, and incubated with appropriate concentrations of the compounds to be tested. Two days later, XTT/PMS was added to test plates and the amount of formazan produced was quantified spectrophotometrically at 450/650 nm. The EC50 value was calculated as the concentration of compound that increased the percentage of formazan production in compound-treated, virus-infected cells to 50% of that produced by compound-free, mock-infected cells. The 50% cytotoxic dose (CC50) was calculated as the concentration of compound that decreased the percentage of formazan produced in compound-treated, mock-infected cells to 50% of that produced by compound-free, mock-infected cells. The therapeutic index (TI) was calculated by dividing the CC50 value by the EC50 value.
(§2) All strains of human rhinovirus (HRV) for use in this assay were purchased from American Type Culture Collection (ATCC), except for HRV serotype-14 (produced from the infectious cDNA clone constructed by Dr. Robert Rueckert, Institute for Molecular Virology, University of Wisconsin, Madison, Wis.). HRV stocks were propagated and viral assays were performed in H1-HeLa cells (ATCC). Cells were grown in minimal essential medium with 10% fetal bovine serum, available from Life Technologies (Gaithersburg, Md.).

HRV-14 = assay: Antirhinoviral H1-HeLa cell culture assay (XTT cell protection, EC50), HRV-14; assay type: cell-based, human rhinovirus (HRV) serotype-14 in H1-HeLa cells
Protocol: as §1
In this cell protection assay, the ability of compounds to protect cells against HRV infection was measured by the XTT dye reduction method, which is described in Weislow et al., J. Natl. Cancer Inst. […] H1-HeLa cells were infected with HRV-14 at a multiplicity of infection (m.o.i.) of 0.13 (virus particles/cell) or mock-infected with medium only. Infected or mock-infected cells were resuspended at 8×10^5 cells per mL, and incubated with appropriate concentrations of the compounds to be tested. Two days later, XTT/PMS was added to test plates and the amount of formazan produced was quantified spectrophotometrically at 450/650 nm. […] The therapeutic index (TI) was calculated by dividing the CC50 value by the EC50 value.
as §2

[2] = tested on: Echovirus type 11 (ECHO 11); assay: Anti-echoviral cell culture assay (XTT, EC50), ECHO 11; assay type: cell-based, echovirus 11 in MRC-5 cells; conditions: ECHO-11 (EV-11)
Protocol: Anti-Echoviral and Anti-Enteroviral Cell Culture Assays
Echovirus type 11 (ECHO 11) was purchased from ATCC (Rockville, Md.). Virus stocks were propagated and antiviral assays were performed in MRC-5 cells (ATCC). Cells were grown in minimal essential medium with 10% fetal bovine serum (Life Technologies, Gaithersburg, Md.). The ability of the compounds of this invention to protect cells against ECHO 11 infection was measured by the XTT dye reduction method (Weislow et al., J. Natl. Cancer Inst. (1989), vol. 81, 577-586). MRC-5 cells were infected with ECHO 11 at an m.o.i. of 0.003 or 0.004, respectively, or mock-infected with medium only. Infected or uninfected cells were added at 1×10^4 cells per well and incubated with appropriate concentrations of compound. Four days later, XTT/PMS was added to test plates, and the amount of formazan produced was quantified spectrophotometrically at 450/650 nm. The EC50 was calculated as the concentration of compound that increased the formazan production in compound-treated, virus-infected cells to 50% of that produced by compound-free, uninfected cells. The 50% cytotoxic dose (CC50) was calculated as the concentration of compound that decreased formazan production in compound-treated, uninfected cells to 50% of that produced in compound-free, uninfected cells. The therapeutic index (TI) was calculated by dividing the CC50 by the EC50. Activity of the compounds against enterovirus type 70 (EV 70) may be measured by the same assay as described above in this section. Enterovirus type 70 (EV 70) may be obtained from the American Type Culture Collection ATCC (Rockville, Md.).

[3] = tested on: Coxsackievirus type A-21 (CAV-21); assay: Anticoxsackieviral cell culture assay (XTT, EC50), CAV-21; assay type: cell-based, coxsackievirus A-21 in H1-HeLa cells
Protocol: Anticoxsackieviral Cell Culture Assay:
Coxsackievirus types A-21 (CAV-21) and B3 (CVB3) were purchased from American Type Culture Collection (ATCC, Rockville, Md.). Virus stocks were propagated and antiviral assays were performed in H1-HeLa cells (ATCC). Cells were grown in minimal essential medium with 10% fetal bovine serum (Life Technologies, Gaithersburg, Md.). The ability of the compounds of this invention to protect cells against either CAV-21 or CVB3 infection was measured by the XTT dye reduction method. This method is described in Weislow et al., J. Natl. Cancer Inst. (1989), vol. 81, 577-586. H1-HeLa cells were infected with CAV-21 or CVB3 at a multiplicity of infection (m.o.i.) of 0.025 or 0.075, respectively, or mock-infected with medium only. H1-HeLa cells were plated at 4×10^4 cells per well in a 96-well plate and incubated with appropriate concentrations of the test compound. One day (CVB3) or two days (CAV-21) later, XTT/PMS was added to test plates and the amount of formazan produced was quantified spectrophotometrically at 450/650 nm. The EC50 was calculated as the concentration of compound that increased the formazan production in compound-treated, virus-infected cells to 50% of that produced by compound-free, uninfected cells. The 50% cytotoxic dose (CC50) was calculated as the concentration of compound that decreased formazan production in compound-treated, uninfected cells to 50% of that produced in compound-free, uninfected cells. The therapeutic index (TI) was calculated by dividing the CC50 by the EC50.

Structure (SMILES) | TI ([1]; HRV-9) | TI ([1]; HRV-10) | TI ([1]; HRV-16) | TI ([1]; HRV-25) | TI ([1]; HRV-39) | TI (HRV-14) | TI ([1]; HRV-1A) | TI ([1]; HRV-2) | TI ([1]; HRV-3) | TI ([1]; HRV-11) | TI ([1]; HRV-13) | TI ([1]; HRV-19) | TI ([1]; HRV-23) | TI ([1]; HRV-78) | TI ([1]; HRV-Hanks) | TI [2] | TI [3]
CC[C@@H](C(=O)N[C@H](/C=C/C(=O)OC(C)C)C[C@@H]1CCNC1=O)n1cccc(NC(=O)c2cc(C)on2)c1=O [Compound 52, trans-(2′S,3′″″S,4S)-4-[2′-(3″-{[1′″-(5″″-Methylisoxazol-3″″-yl)methanoyl]amino}-2′″oxo-2′″H-pyridin-1′″-yl)butanoylamino]-5-(2′″″-oxopyrrolidin-3′″″-yl)pent-2-enoic Acid Isopropyl Ester] | >21 | >56 | >35 | >91 | >29 | >55 | – | – | – | – | – | – | – | – | – | – | –
Cc1cc(C(=O)Nc2cccn([C@@H](Cc3ccc(F)c(F)c3)C(=O)N[C@H](/C=C/C(=O)OC3CCCCC3)C[C@@H]3CCNC3=O)c2=O)no1 [Compound 54, trans-(2′S,3″″″S,4S)-4-[3′-(3″,4″-Difluorophenyl)-2′-(3′″-{[1″″-(5′″″-methylisoxazol-3′″″-yl)methanoyl]amino}-2″″-oxo-2″″H-pyridin-1″″-yl)propanoylamino]-5-(2″″″-oxopyrrolidin-3″″″-yl)pent-2-enoic Acid Cyclohexyl Ester] | >19 | >76 | >70 | >46 | >28 | >222 | >20 | >67 | – | – | – | – | – | – | – | – | –
C#CC[C@@H](C(=O)N[C@H](/C=C/C(=O)OC1CCCCC1)C[C@@H]1CCNC1=O)n1cccc(NC(=O)c2cc(C)on2)c1=O [Compound 55, trans-(2′S,3′″″S,4S)-4-[2′-(3″-{[1′″-(5″″-Methylisoxazol-3″″-yl)methanoyl]amino}-2′″-oxo-2′″H-pyridin-1′″-yl)pent-4″-ynoylamino]-5-(2′″″-oxopyrrolidin-3′″″-yl)pent-2-enoic Acid Cyclohexyl Ester] | >18 | >51 | – | >19 | – | >57 | >19 | – | – | – | – | – | – | – | – | – | –
C#CC[C@@H](C(=O)N[C@H](/C=C/C(=O)OC1CCCCCC1)C[C@@H]1CCNC1=O)n1cccc(NC(=O)c2cc(C)on2)c1=O [Compound 57, trans-(2′S,3′″″S,4S)-4-[2′-(3″-{[1′″-(5″″-Methylisoxazol-3″″-yl)methanoyl]amino}-2′″-oxo-2′″H-pyridin-1′″-yl)pent-4″-ynoylamino]-5-(2′″″-oxopyrrolidin-3′″″-yl)pent-2-enoic Acid Cycloheptyl Ester] | >6 | >20 | – | >1 | – | >23 | >6 | – | – | – | – | – | – | – | – | – | –
Cc1cc(C(=O)Nc2cccn([C@@H](Cc3ccc(F)c(F)c3)C(=O)N[C@H](/C=C/C(=O)OC3CCC3)C[C@@H]3CCNC3=O)c2=O)no1 [Compound 58, trans-(2′S,3″″″S,4S)-4-[3′-(3″,4″-Difluorophenyl)-2′-(3′″-{[1″″-(5′″″-methylisoxazol-3′″″-yl)methanoyl]amino}-2″″-oxo-2″″H-pyridin-1″″-yl)propanoylamino]-5-(2″″″-oxopyrrolidin-3″″″-yl)pent-2-enoic Acid Cyclobutyl Ester] | >212 | >909 | >714 | >625 | >500 | >3333 | >714 | >769 | >2000 | >2000 | >416 | >588 | >1250 | >714 | >476 | – | –
CC[C@@H](C(=O)N[C@H](/C=C/C(=O)OC1CCCCC1)C[C@@H]1CCNC1=O)n1cccc(NC(=O)c2cc(C)on2)c1=O [Compound 60, trans-(2′S,3′″″S,4S)-4-[2′-(3″-{[1′″-(5″″-Methylisoxazol-3″″-yl)methanoyl]amino}-2′″oxo-2′″H-pyridin-1′″-yl)butanoylamino]-5-(2′″″-oxopyrrolidin-3′″″-yl)pent-2-enoic Acid Cyclohexyl Ester] | >19 | >27 | – | >39 | – | >57 | >17 | – | – | – | – | – | – | – | – | – | –
Cc1cc(C(=O)Nc2cccn([C@@H](Cc3ccccc3)C(=O)N[C@H](/C=C/C(=O)OC(C)C)C[C@@H]3CCNC3=O)c2=O)no1 [Compound 66, trans-(2′S,3′″″S,4S)-4-[2′-(3″-{[1′″-(5″″-Methylisoxazol-3″″-yl)methanoyl]amino}-2′″-oxo-2′″H-pyridin-1′″-yl)-3″-phenylpropanoylamino]-5-(2′″″-oxopyrrolidin-3′″″-yl)pent-2-enoic Acid Isopropyl Ester] | >51 | – | >909 | – | >454 | >64 | – | – | >178 | – | >175 | – | – | >666 | – | – | –
Cc1cc(C(=O)Nc2cccn([C@@H](Cc3ccc(F)cc3)C(=O)N[C@H](/C=C/C(=O)OC(C)C)C[C@@H]3CCNC3=O)c2=O)no1 [Compound 67, trans-(2′S,3″″″S)-4-[3′-(4″-Fluorophenyl)-2′-(3′″-{[1″″-(5′″″-methylisoxazol-3′″″-yl)methanoyl]amino}-2″″-oxo-2″″H-pyridin-1″″-yl)propanoylamino]-5-(2″″″-oxopyrrolidin-3″″″-yl)pent-2-enoic Acid Isopropyl Ester] | >61 | – | >303 | – | >263 | >175 | – | – | >526 | – | >61 | – | – | >208 | – | – | –
Cc1cc(CCCOc2c(C)cc(-c3noc(C(F)(F)F)n3)cc2C)on1 [Pleconaril, reference compound] | – | – | – | – | – | >1000 | – | – | – | – | – | – | – | – | – | >62 | >107

From patent publication US6514997B2, “Antipicornaviral compounds and compositions, their pharmaceutical uses, and materials for their synthesis” (Agouron Pharmaceuticals, Inc., priority 1999, dated 2003)
